Compound potency records, mixed from different reports. Data source: NIAID ChemDB in PubChem.

Shared fields: growth or infection tests; organism: Herpes simplex virus 1; method: plaque count; measure: EC50

Blank or dashed fields: not listed here.

{"smiles": "O=Cc1cn([C@H]2C[C@H](O)[C@@H](CO)O2)c(=O)[nH]c1=O", "strain or isolate": "42-78", "cell line": "HELF", "result": ">500 µM"}
{"smiles": "NC(N)NN=c1/c(=N\\NC(N)N)c2ccccc2/c1=N\\NC(N)N", "strain or isolate": "MP", "cell line": "HEP-2", "result": "20 µM"}
{"smiles": "CSc1nsc(-c2ccc(C(F)(F)F)cc2)c1C#N", "strain or isolate": "F strain", "cell line": "VERO", "result": ">14 µM"}
{"smiles": "Nc1nc(=O)n([C@@H]2O[C@H](CO)[C@@H](O)[C@@H]2F)cc1I", "strain or isolate": "F-FAU-C2", "cell line": "VERO", "result": "3.8 µM"}
{"smiles": "Cc1cn([C@@H]2O[C@H](CO)[C@@H](O)[C@@H]2O)c(=O)[nH]c1=O", "strain or isolate": "CHR-3", "cell line": "HELF", "result": "0.19 µg/mL"}
{"smiles": "Cc1cn([C@@H]2O[C@H](CO)[C@@H](O)[C@@H]2F)c(=O)[nH]c1=O", "strain or isolate": "MGH 10", "cell line": "VERO", "result": "0.8 µM"}
{"smiles": "COc1c2c(cc3oc(=O)c(-c4ccc(O)cc4O)cc13)OC(C)(CO)CC2", "strain or isolate": "HF", "cell line": "CV-1", "result": ">10 µg/mL"}
{"smiles": "CC(C)(C)[Si](C)(C)OC[C@H]1O[C@@H](n2ccc(=O)[nH]c2=O)[C@H](O[Si](C)(C)C(C)(C)C)/C1=C/CO", "cell line": "VERO", "result": ">5 µM"}
{"smiles": "Nc1nc2c(ncn2CCCCO)c(=O)[nH]1", "strain or isolate": "C42 (acyclovir-resistant)", "cell line": "VERO", "result": "150 µM"}
{"smiles": "O=C(O)P(=O)(O)O", "strain or isolate": "KUPKA", "cell line": "GMK", "result": "91.7 µM"}
{"smiles": "O=C(O)P(=O)(O)O", "strain or isolate": "F-FIAC-C3", "cell line": "VERO", "result": "55 µM"}
{"smiles": "Nc1nc2c(ncn2CC[C@H](O)CO)c(=O)[nH]1", "strain or isolate": "C915 TK-", "cell line": "VERO", "result": "300 µM"}
{"smiles": "Cc1cn([C@@H]2O[C@H](CO)[C@@H](O)[C@@H]2F)c(=O)[nH]c1=O", "strain or isolate": "F-FIAU-C1", "cell line": "VERO", "result": "6.9 µM"}
{"smiles": "O=C(NCc1ccc(Cl)cc1)c1c[nH]c2c(F)cccc2c1=O", "strain or isolate": "F", "result": "18 µM"}
{"smiles": "Nc1nc(=O)n([C@@H]2CC[C@H](CO)O2)cc1F", "strain or isolate": "VR-3", "cell line": "VERO", "result": "18 µM"}
{"smiles": "Nc1ncnc2c1ncn2[C@@H]1O[C@H](CO)[C@@H](O)[C@@H]1O", "strain or isolate": "E-377", "cell line": "MEF", "result": "14 µM"}
{"smiles": "Nc1nc2c(ncn2COCCO)c(=O)[nH]1", "strain or isolate": "CHR-3", "cell line": "HELF", "result": "0.049 µg/mL"}
{"smiles": "CCCCCCCCCCCCCCCCCCOCCCOP1(=O)CO[C@@H](Cn2ccc(N)nc2=O)CO1", "strain or isolate": "HL-3", "cell line": "HFF", "result": ">1 µM"}
{"smiles": "Cn1cc(C(=O)NCc2ccc(Cl)cc2)c(=O)c2cc(CN3CCOCC3)ccc21", "strain or isolate": "KOS-M1", "cell line": "VERO", "result": ">20 µM"}
{"smiles": "Nc1nc2c(ncn2C[C@]2(CO)C[C@H]2CO)c(=O)[nH]1", "strain or isolate": "KOS (TK-)", "cell line": "MRC-5", "result": "82 µg/mL"}
{"smiles": "Nc1nc2c(ncn2CC[C@@H](O)CO)c(=O)[nH]1", "strain or isolate": "C42 (acyclovir-resistant)", "cell line": "VERO", "result": "230 µM"}
{"smiles": "O=C(O)CP(=O)(O)O", "strain or isolate": "PAA-resistant", "cell line": "VERO", "result": "166.8 µg/mL"}
{"smiles": "Nc1nc2c(ncn2COC(CO)CO)c(=O)[nH]1", "strain or isolate": "5711 (DRUG-resistant)", "cell line": "VERO H", "result": "1.82 µM"}
{"smiles": "Nc1nc(=O)n([C@@H]2O[C@H](CO)[C@@H](O)[C@@H]2F)cc1I", "strain or isolate": "F", "cell line": "VERO", "result": "0.3 µM"}
{"smiles": "CN(C)c1ccc2ccc(N)cc2n1", "cell line": "KB", "result": "3 µg/mL"}
{"smiles": "O=c1[nH]c(=O)n([C@H]2C[C@H](O)[C@@H](CO)O2)cc1/C=C/Br", "strain or isolate": "F-FIAC-C3", "cell line": "VERO", "result": "210 µM"}
{"smiles": "Nc1nc2c(ncn2CC(CO)CCO)c(=O)[nH]1", "strain or isolate": "C42", "cell line": "VERO", "result": "0.5 µM"}
{"smiles": "Cc1cn([C@@H]2O[C@H](CO)[C@@H](O)[C@@H]2O)c(=O)[nH]c1=O", "strain or isolate": "V3", "cell line": "VERO", "result": "57 µM"}
{"smiles": "CSc1nsc(-c2ccccc2Cl)c1C#N", "strain or isolate": "F strain", "cell line": "VERO", "result": ">5 µM"}
{"smiles": "O=c1[nH]c(=O)n([C@@H]2O[C@H](COP(=O)(O)O)[C@@H](O)[C@@H]2O)cc1/C=C/Br", "strain or isolate": "VR-3", "cell line": "HELF", "result": "0.013 µg/mL"}
{"smiles": "COC(=O)/C=C1/[C@@H](O[Si](C)(C)C(C)(C)C)[C@H](n2ccc(=O)[nH]c2=O)O[C@@H]1CO[Si](C)(C)C(C)(C)C", "cell line": "VERO", "result": ">38 µM"}
{"smiles": "Nc1ncnc2c1ncn2C[C@@H](CO)OCP(=O)(O)O", "strain or isolate": "KOS", "cell line": "WI-38", "result": "5 µM"}
{"smiles": "Nc1ccn([C@@H]2O[C@H](CO)[C@@H](O)[C@@H]2O)c(=O)n1", "strain or isolate": "KOS-M1", "cell line": "VERO", "result": "0.2 µM"}
{"smiles": "O=C(OC[C@H]1O[C@@H](OC(=O)c2cc(O)c(O)c(O)c2)[C@H](O)[C@@H](OC(=O)c2cc(O)c(O)c(O)c2)[C@@H]1O)c1cc(O)c(O)c(O)c1", "strain or isolate": "HF", "cell line": "CV-1", "result": "0.034 µg/mL"}
{"smiles": "CSc1nsc(-c2ccccn2)c1C#N", "strain or isolate": "F strain", "cell line": "VERO", "result": ">50 µM"}
{"smiles": "Cc1cn([C@@H]2O[C@H](CO[Si](C)(C)C(C)(C)C)C3(O[C@H]3C(=O)NO)[C@H]2O[Si](C)(C)C(C)(C)C)c(=O)[nH]c1=O", "cell line": "VERO", "result": ">3 µM"}
{"smiles": "O=c1ccn([C@@H]2O[C@H](CO)[C@@H](O)[C@H]2O)c(=O)[nH]1", "strain or isolate": "V3", "cell line": "HELF", "result": ">1000 µM"}
{"smiles": "Cc1cc2c(c3ccccc13)C(=N\\NC(N)N)/C(=N/NC(N)N)C2", "strain or isolate": "MP", "cell line": "HEP-2", "result": "10 µM"}
{"smiles": "Nc1nc(-c2ccc(NC(=O)CNCc3ccccc3)cc2)cs1", "cell line": "BHK-21/C13", "result": "2.7 µM"}
{"smiles": "O=C(NCc1ccc(Cl)cc1)c1cn2c3c(cc(CN4CCOCC4)cc3c1=O)OC(c1cccnc1)C2", "strain or isolate": "L6178033", "cell line": "HFF", "result": "4 µM"}
{"smiles": "CSc1nsc(SC)c1C#N", "strain or isolate": "F strain", "cell line": "VERO", "result": ">12 µM"}
{"smiles": "O=c1[nH]c(=O)n([C@@H]2O[C@H](CO)[C@@H](O)[C@@H]2O)cc1/C=C/I", "strain or isolate": "MP", "cell line": "HELF", "result": "0.005 µg/mL"}
{"smiles": "CCCCCCCC/C=C\\CCCCCCCOCCCOP1(=O)CO[C@@H](Cn2ccc(N)nc2=O)CO1", "strain or isolate": "F", "cell line": "HFF", "result": "0.3 µM"}
{"smiles": "O=C(OC1OC2COC(=O)c3cc(Oc4c(C(=O)OC5C(O)OC6COC(=O)c7cc(O)c(O)c(O)c7-c7c(cc(O)c(O)c7O)C(=O)OC6C5OC(=O)c5cc(O)c(O)c(O)c5)cc(O)c(O)c4O)c(O)c(O)c3-c3c(cc(O)c(O)c3O)C(=O)OC2C(OC(=O)c2cc(O)c(O)c(O)c2)C1O)c1cc(O)c(O)c(O)c1", "strain or isolate": "HF", "cell line": "CV-1", "result": "0.036 µg/mL"}
{"smiles": "O=C(O)CP(=O)(O)O", "strain or isolate": "HL-3", "cell line": "MEF", "result": "3.6 µg/mL"}
{"smiles": "Nc1nc2c(ncn2COC2COP(=O)(O)OC2)c(=O)[nH]1", "strain or isolate": "NDG-R", "cell line": "MRC-5", "result": "37 µM"}
{"smiles": "CCCCCCCCCCCCCCCCOP(=O)(O)CO[C@H](CO)Cn1ccc(N)nc1=O", "strain or isolate": "HL-3", "cell line": "HFF", "result": "0.2 µM"}
{"smiles": "Nc1nc(=O)n([C@@H]2O[C@H](CO)[C@@H](O)[C@@H]2F)cc1I", "strain or isolate": "77", "cell line": "VERO", "result": "0.12 µM"}
{"smiles": "O=C(OC1OC2COC(=O)c3cc(Oc4c(C(=O)OC5OC6COC(=O)c7cc(O)c(O)c(O)c7-c7c(cc(O)c(O)c7O)C(=O)OC6C(OC(=O)c6cc(O)c(O)c(O)c6)C5OC(=O)c5cc(O)c(O)c(O)c5)cc(O)c(O)c4O)c(O)c(O)c3-c3c(cc(O)c(O)c3O)C(=O)OC2C(OC(=O)c2cc(O)c(O)c(O)c2)C1OC(=O)c1cc(O)c(O)c(O)c1)c1cc(O)c(O)c(O)c1", "strain or isolate": "HF", "cell line": "CV-1", "result": "0.034 µg/mL"}
{"smiles": "CCCCCCCCCCCCCCCCOP1(=O)CO[C@@H](Cn2ccc(N)nc2=O)CO1", "strain or isolate": "F", "cell line": "HFF", "result": ">1 µM"}
{"smiles": "CC(=O)OC[C@H]1[C@H](COC(C)=O)[C@@H](CO)O[C@H]1n1cnc2c(N)ncnc21", "strain or isolate": "E-377", "cell line": "MEF", "result": "122 µM"}
{"smiles": "Cc1cc(N(C)C)c2ccc(N(C)C)cc2n1", "cell line": "KB", "result": "2 µg/mL"}
{"smiles": "CCCCCCCCCCCCCCCCCCOC[C@H](COP(=O)(O)CO[C@H](CO)Cn1ccc(N)nc1=O)OCc1ccccc1", "strain or isolate": "HL-3", "cell line": "HFF", "result": "0.04 µM"}
{"smiles": "[O-][n+]1onc2ncnc(N3CC[N+]4(CC3)CC[N+]3(CCN(c5ncnc6no[n+]([O-])c56)CC3)CC4)c21", "strain or isolate": "K1R", "cell line": "GMK", "result": "8.4 µM"}
{"smiles": "CNc1cc(C)nc2cc(N(C)C)ccc12", "cell line": "KB", "result": "2 µg/mL"}
{"smiles": "Cn1cc(C(=O)NCc2ccc(Cl)cc2)c(=O)c2cc(CN3CCOCC3)ccc21", "strain or isolate": "F", "cell line": "HFF", "result": "2.8 µM"}
{"smiles": "CSc1nsc(-c2c(Cl)cccc2Cl)c1C#N", "strain or isolate": "F strain", "cell line": "VERO", "result": ">5 µM"}
{"smiles": "CNc1ccc2ccc(N(C)C)cc2n1", "cell line": "KB", "result": "2 µg/mL"}
{"smiles": "Cc1cn([C@@H]2O[C@H](CO[Si](C)(C)C(C)(C)C)C3(O[C@H]3C(=O)NN)[C@H]2O[Si](C)(C)C(C)(C)C)c(=O)[nH]c1=O", "cell line": "VERO", "result": ">5.5 µM"}
{"smiles": "Cn1cc(C(=O)NCc2ccc(Cl)cc2)c(=O)c2cc(/C=C\\CO)cc(F)c21", "strain or isolate": "KOS-M2", "cell line": "VERO", "result": ">20 µM"}
{"smiles": "Nc1nc2c(ncn2COCCO)c(=O)[nH]1", "strain or isolate": "F", "cell line": "HFF", "result": "0.2 µg/mL"}
{"smiles": "O=C(NCc1ccc(Cl)cc1)c1c[nH]c2c(F)cccc2c1=O", "strain or isolate": "6 isolates", "result": "22 µM"}
{"smiles": "Cc1cn([C@@H]2O[C@H](CO)[C@H]2CO)c(=O)[nH]c1=O", "strain or isolate": "11893 (TK altered)", "cell line": "HFF", "result": "82 µg/mL"}
{"smiles": "Cc1cc(N)nc2cc(N)ccc12", "cell line": "KB", "result": "7 µg/mL"}

A second listing of 4 rows from above:

smiles,strain or isolate,cell line,result
O=C(O)P(=O)(O)O,F-FIAC-C3,VERO,55 µM
Nc1nc2c(ncn2COCCO)c(=O)[nH]1,CHR-3,HELF,0.049 µg/mL
O=c1[nH]c(=O)n([C@@H]2O[C@H](CO)[C@@H](O)[C@@H]2O)cc1/C=C/I,MP,HELF,0.005 µg/mL
CNc1ccc2ccc(N(C)C)cc2n1,,KB,2 µg/mL

Conditions beyond the fields shown may differ between rows. ECn: concentration that inhibits the pathogen or its effect by n%.